{"source": "PubChem BioAssay AID504761 (Drosophila RNAi Screening Center, 2011)", "assay": "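Genome-wide fly cell screen for genes dengue virus requires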 (primary screen)", "cell system": "D.Mel-2 cells from Drosophila", "reagent": "long dsRNA against Drosophila genes", "conditions": "infection with dengue virus type 2; dose and infection time not stated", "detection": "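Per well on two replicate plates, imaging gave the percent of cells positive for viral envelope protein, ranked by infection, and a nuclear count of cells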", "direction": "infection score: higher = more virus-infected cells; cell count: higher = more cells in the well", "call rule": "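Very low infection ranking in both replicate wells (chance probability at most 0.065), then a retest showing infection dropped 1.5-fold or more at p below 0.05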", "meaning of the calls": "active = confirmed: knock-down lowers infection; inactive = not picked or not confirmed", "note": "The deposit covers about 22,000 reagents; shown is a random part of those with a known target gene and a result. In the full data, 116 (0.52%) are marked active. 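Calls depend on retest data that are not deposited; infection was ranked per plate without normalising between plates; the unit of the infection score is not given.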 Raw values are not corrected between plates. Not stated in the record: the amount of reagent, the time to read-out."}
The opening 2 records, ahead of the listing:
{"target gene": "CG13908 (retired record) (GeneID 38110)", "DRSC id": "DRSC08378", "infection score, replicate 1": 2.08, "infection score, replicate 2": 1.78, "cell count, replicate 1": 6158, "cell count, replicate 2": 5857, "outcome": "inactive"}
{"target gene": "CG13908 (retired record) (GeneID 38110)", "DRSC id": "DRSC27241", "infection score, replicate 1": 17.1, "infection score, replicate 2": 9.96, "cell count, replicate 1": 6367, "cell count, replicate 2": 6598, "outcome": "inactive"}

The list itself, from the first entry:
{"target gene": "CG13908 (retired record) (GeneID 38110)", "DRSC id": "DRSC08378", "infection score, replicate 1": 2.08, "infection score, replicate 2": 1.78, "cell count, replicate 1": 6158, "cell count, replicate 2": 5857, "outcome": "inactive"}
{"target gene": "CG13908 (retired record) (GeneID 38110)", "DRSC id": "DRSC27241", "infection score, replicate 1": 17.1, "infection score, replicate 2": 9.96, "cell count, replicate 1": 6367, "cell count, replicate 2": 6598, "outcome": "inactive"}
{"target gene": "Mat89Ba (GeneID 41973)", "DRSC id": "DRSC14540", "infection score, replicate 1": 11.3, "infection score, replicate 2": 11.4, "cell count, replicate 1": 5947, "cell count, replicate 2": 5951, "outcome": "inactive"}
{"target gene": "Mat89Ba (GeneID 41973)", "DRSC id": "DRSC29166", "infection score, replicate 1": 9.64, "infection score, replicate 2": 12.5, "cell count, replicate 1": 4068, "cell count, replicate 2": 5610, "outcome": "inactive"}
{"target gene": "CG33140 (GeneID 35642)", "DRSC id": "DRSC06030", "infection score, replicate 1": 2.93, "infection score, replicate 2": 13.9, "cell count, replicate 1": 6582, "cell count, replicate 2": 5061, "outcome": "inactive"}
{"target gene": "CG33140 (GeneID 35642)", "DRSC id": "DRSC26717", "infection score, replicate 1": 1.93, "infection score, replicate 2": 1.92, "cell count, replicate 1": 6637, "cell count, replicate 2": 6287, "outcome": "inactive"}
{"target gene": "Rbp6 (GeneID 39919)", "DRSC id": "DRSC10072", "infection score, replicate 1": 4.71, "infection score, replicate 2": 2.37, "cell count, replicate 1": 6205, "cell count, replicate 2": 6160, "outcome": "inactive"}
{"target gene": "Rbp6 (GeneID 39919)", "DRSC id": "DRSC10073", "infection score, replicate 1": 3.38, "infection score, replicate 2": 16.9, "cell count, replicate 1": 6588, "cell count, replicate 2": 5363, "outcome": "inactive"}
{"target gene": "ACC (GeneID 35761)", "DRSC id": "DRSC06059", "infection score, replicate 1": 10.6, "infection score, replicate 2": 9.16, "cell count, replicate 1": 2053, "cell count, replicate 2": 2489, "outcome": "inactive"}
{"target gene": "ACC (GeneID 35761)", "DRSC id": "DRSC07249", "infection score, replicate 1": 1.98, "infection score, replicate 2": 6.32, "cell count, replicate 1": 2578, "cell count, replicate 2": 2977, "outcome": "inactive"}
{"target gene": "ben (GeneID 32358)", "DRSC id": "DRSC20310", "infection score, replicate 1": 4.52, "infection score, replicate 2": 12.2, "cell count, replicate 1": 5489, "cell count, replicate 2": 5476, "outcome": "inactive"}
{"target gene": "ben (GeneID 32358)", "DRSC id": "DRSC21261", "infection score, replicate 1": 7.56, "infection score, replicate 2": 5.12, "cell count, replicate 1": 6220, "cell count, replicate 2": 6189, "outcome": "inactive"}
{"target gene": "ben (GeneID 32358)", "DRSC id": "DRSC29133", "cell count, replicate 1": 246, "cell count, replicate 2": 319, "outcome": "inactive"}
{"target gene": "CG32188 (GeneID 317901)", "DRSC id": "DRSC09510", "infection score, replicate 1": 0.2, "infection score, replicate 2": 0.05, "cell count, replicate 1": 6038, "cell count, replicate 2": 6265, "outcome": "inactive"}
{"target gene": "CG14687 (GeneID 41297)", "DRSC id": "DRSC14910", "infection score, replicate 1": 0.92, "infection score, replicate 2": 1.01, "cell count, replicate 1": 6071, "cell count, replicate 2": 6666, "outcome": "inactive"}
{"target gene": "CG14687 (GeneID 41297)", "DRSC id": "DRSC29639", "infection score, replicate 1": 19.2, "infection score, replicate 2": 5.55, "cell count, replicate 1": 5783, "cell count, replicate 2": 919, "outcome": "inactive"}
{"target gene": "CG10164 (GeneID 42777)", "DRSC id": "DRSC14197", "infection score, replicate 1": 11.2, "infection score, replicate 2": 1.18, "cell count, replicate 1": 6328, "cell count, replicate 2": 7270, "outcome": "inactive"}
{"target gene": "RNaseX25 (GeneID 38885)", "DRSC id": "DRSC11259", "infection score, replicate 1": 14.9, "infection score, replicate 2": 18, "cell count, replicate 1": 4562, "cell count, replicate 2": 5086, "outcome": "inactive"}
{"target gene": "RNaseX25 (GeneID 38885)", "DRSC id": "DRSC29835", "infection score, replicate 1": 18.5, "infection score, replicate 2": 24.1, "cell count, replicate 1": 6247, "cell count, replicate 2": 5848, "outcome": "inactive"}
{"target gene": "Dtwd2 (GeneID 40873)", "DRSC id": "DRSC12501", "infection score, replicate 1": 3.6, "infection score, replicate 2": 10.7, "cell count, replicate 1": 6438, "cell count, replicate 2": 6397, "outcome": "inactive"}
{"target gene": "Lfg (GeneID 36418)", "DRSC id": "DRSC06853", "infection score, replicate 1": 7.1, "infection score, replicate 2": 8.06, "cell count, replicate 1": 6779, "cell count, replicate 2": 6461, "outcome": "inactive"}
